The values that follow come from patent publication US20090176776A1, “SMALL MOLECULE INHIBITORS OF HIV-1 CAPSID ASSEMBLY” (UNIVERSITY OF ALABAMA AT BIRMINGHAM, priority 2005, published 2009).

Structures are written as SMILES.

Holding throughout (assay type): cell-based
One data set deals with HIV-1YU2. Description: Anti-HIV assay (multiple round), luciferase expression in Luc-M7 cells. The following applies: TC50/IC50. The procedure: Anti-HIV Assays (Multiple Round). The inhibitory effects of the tested compounds on HIV-1YU2 replication were determined by the level of luciferase expression after 6 days of infection using Bright-Glo assay (Promega). An amount of 1.5×10^4 Luc-M7 (a gift from Ned Landau) cells per ml were infected with HIV-1YU2 at a multiplicity of infection (MOI) of 3. The HIV-1 infected ([…] compound) or mock-infected (0-300 μM compound) Luc-M7 cells were placed in 96-well culture plates (100 μl/well) with 100 μl of various concentrations of the compounds with 20 μg/ml DEAE Dextran in triplicate and incubated at 37° C. under 5% CO2 at 100% humidity. After 6 days, cell viability was quantified by Cell-Titer Glo assay (Promega). […] On day 5 cell viability was determined in the mock-infected cells. FIGS. 12-18 show the anti-HIV assays for the examples of chemical compounds used according to the invention. After in-vitro assay, the chemical compounds in FIGS. 12-18 were selected for screening for cell viability and toxicity. Jurkat cells assay was used as screening assay. […] After five days, GFP expression was read. Cell viability was monitored with Alamar Blue assay. Luc M7 assay was designed to measure inhibitory activity of the chemical compounds to viral replication. After infection of cells with YU2 virus, plate cells in 96-well plate in the presence of six concentration of compounds in DMSO. At day 6, the number of cells in wells were read with Cell Titer Glo kit or by counting the number of cells infected with Bright Glo kit. 293T cells assay was designed to determine the toxicity. 293T cells were transfected with NL43. After four hours, transfected cells were plated in 96-well plate in DMSO and 2 μM Indinavir. 72 hours later, viral supernatant was collected and plated on J[…].

Data set [1] concerns HIV-1NL43. Put plainly: Anti-HIV assay (single round), p24 production by pNL43-transfected cells (ELISA). The conditions noted are these: 293T cells; TC50/IC50. The procedure:
(§1) Anti-HIV Assays (Single Round). The inhibitory effect of the compounds on virus production and infectivity were determined by measuring the level of p24 produced in the presence of various concentrations of compounds from HEK-293 cells transiently transfected with pNL43 and by titering the virus on TZM-b1 cells. Briefly, 2.5×10^5 HEK-293 cells/ml were transfected with pNL43 using FuGene 6. Four hours post transfection the cells were plated in 96-well plates containing 100 μl of various concentrations of compounds (0-75 μM or 0-300 μM for mock transfected cells) in triplicate. At 72-hours post transfection virus supernatant was collected and stored at −80° C. until analysis. The level of p24 produced at each compound concentration was determined relative to the level produced in the presence of the DMSO only controls using HIV-1 p24 enzyme-linked immunosorbent assay (ELISA) (Beckman-Coulter). To determine the infectivity of the virus produced TZM-b1 cells were plated at 1×10^5 cells/ml in 100 μL in 96-well plates overnight. The next day, the media was replaced with 75 μL DMEM supplemented with 1% FBS, 1× PSG and 40 μg/ml DEAE Dextran and 25 μL of viral supernatant from the HEK-293 cells was added to each well. Three hours later 100 μL of DMEM with 7% FBS was added to each well. Two days after infection the cells were lysed and the level of luciferase expression was determined using the Bright-Glo assay.
(§2) FIGS. 12-18 show the anti-HIV assays for the examples of chemical compounds used according to the invention. After in-vitro assay, the chemical compounds in FIGS. 12-18 were selected for screening for cell viability and toxicity. Jurkat cells assay was used as screening assay. In Jurkat cells assay, JLTRG-R5 cells were used as Indicator cells and MOLT4 cells as Producer cells of NL43 and BAL virus. 96 chemical compounds were plated at seven different concentration from 75 μM to 0 μM at three-fold serial dilutions in 384 well plate. After five days, GFP expression was read. Cell viability was monitored with Alamar Blue assay. Luc M7 assay was designed to measure inhibitory activity of the chemical compounds to viral replication. After infection of cells with YU2 virus, plate cells in 96-well plate in the presence of six concentration of compounds in DMSO. At day 6, the number of cells in wells were read with Cell Titer Glo kit or by counting the number of cells infected with Bright Glo kit. 293T cells assay was designed to determine the toxicity. 293T cells were transfected with NL43. After four hours, transfected cells were plated in 96-well plate in DMSO and 2 μM Indinavir. 72 hours later, viral supernatant was collected and plated on JC53BL. Luciferase expression was measure after two days and p24 analysis was conducted with 1:1000 and 1:2000 dilutions.
For orientation: ELISA stands for enzyme-linked immunosorbent assay.

Data set [2] concerns HIV-1NL43. Description: Anti-HIV assay (single round), infectivity of virus produced, titered on TZM-b1 cells. The conditions noted are these: 293T cells; TC50/IC50. The procedure: as §1, §2

For the molecule `O=C(O)c1ccc2c(c1)C1C=CCC1C(c1ccc([N+](=O)[O-])cc1)N2` (centres unmarked) [Compound 41], in the data set with HIV-1YU2, the TI turned out to be 31.33.

In turn, `CC(C)(C)c1ccc(OCCN2CCOCC2)cc1` [Compound 60] came in with a TI in the data set with HIV-1YU2 of 17.95.

For `CC(=NNC(=O)C(O)c1ccccc1)c1ccc2c(c1)CCCC2` (centres unmarked) [Compound 6], the TI with HIV-1YU2 is recorded as 2.39.

`CCN(CC)c1ccc(C=Nc2ccc(Sc3ccc([N+](=O)[O-])cc3)cc2)cc1` [Compound 70] yielded a TI in the data set with HIV-1YU2 of 62.93. Moreover, the “TI - p24” value with HIV-1NL43 [1] came to 2.00. For the same molecule, the TI - infectivity in the data set on HIV-1NL43 [2] worked out at 4.11.

`CCOC(=O)c1c(N2C(=O)C=CC2=O)sc2c1CCCC2` [Compound 8] showed a TI in the data set on HIV-1YU2 of 2.08.

`Cc1cc(F)ccc1NCc1ccccn1` [Compound 16] gave a TI in the data set on HIV-1YU2 of 3.74.

As for `O=C(O)C(S)Cc1ccc(Cl)cc1` (centres unmarked) [Compound 47], the “TI - p24” value in the data set with HIV-1NL43 [1] is reported as 8.21. Further, the TI - infectivity in the data set on HIV-1NL43 [2] was found to be 5.91.

`Nc1nc(-c2ccccc2Cl)cs1` [Compound 15] showed a TI in the data set on HIV-1YU2 of 2.98.

Molecule `O=C(O)c1ccc2c(c1)C1C=CCC1C(c1cccc([N+](=O)[O-])c1)N2` (centres unmarked) [Compound 59] returned a TI in the data set with HIV-1YU2 of 18.69.

On to `Cc1ccc(S(=O)(=O)NN=Cc2cc(Br)cc(Br)c2O)cc1` [Compound 73], for which, in the data set on HIV-1NL43 [1], the “TI - p24” value amounted to 2.55. This molecule gave a TI - infectivity in the data set with HIV-1NL43 [2] of 5.58.

For `Cc1nc2ccccc2n1Cc1ccc(Br)cc1` [Compound 18], the “TI - p24” value in the data set with HIV-1NL43 [1] worked out at 5.06. In addition, in the data set on HIV-1NL43 [2], the TI - infectivity stood at 0.21.

Turning to `O=[N+]([O-])c1c(Cl)cc(O)c2c1C1C=CCC1C(c1ccc(Br)cc1)N2` (centres unmarked) [Compound 25], the “TI - p24” value in the data set with HIV-1NL43 [1] is recorded as 16.7. This molecule also returned a TI - infectivity with HIV-1NL43 [2] of 9.83.

The molecule `CCc1ccc(OCCCCCn2ccnc2)cc1` [Compound 58] returned a TI in the data set on HIV-1YU2 of 145.00. Also, the “TI - p24” value in the data set on HIV-1NL43 [1] is on record as 2.96. The same molecule came in with a TI - infectivity in the data set on HIV-1NL43 [2] of 0.50.

Regarding `COc1ccc(NS(=O)(=O)c2ccc(Br)cc2)cc1OC` [Compound 14], in the data set with HIV-1NL43 [1], the “TI - p24” value is on record as 1.62.

`Cc1ncc(C[n+]2csc(CCOC(=O)C3C4CC5CC(C4)CC3C5)c2C)c(N)n1.Cl.[Cl-]` (centres unmarked) [Compound 26]: in the data set on HIV-1NL43 [1], the “TI - p24” value is 3.21.
